Reference: article PMC7134557

These substances were tested on Nc1ncnc2c1ncn2[C@@H]1O[C@H](COP(=O)(O)OP(=O)(O)OP(=O)(O)O)[C@@H](O)[C@H]1O (assay: purified protein).
With “BaMV helicase-like domain (of BaMV replicase) (Bamboo mosaic virus; K603A)” the Km was 161 ± 11 µM and the kcat was 61 s⁻¹. With “BaMV helicase-like domain (of BaMV replicase) (Bamboo mosaic virus; K610A)” the Km was 126 ± 6 µM and the kcat was 58 s⁻¹. For “BaMV helicase-like domain (of BaMV replicase) (Bamboo mosaic virus; R597A)”, the Km was 137 ± 6 µM and the kcat was 49 s⁻¹.
